Pooled drug test results. Numbers come from NIAID ChemDB, via PubChem.

All rows: growth or infection tests; agent: Mycobacterium tuberculosis

ECn: concentration that inhibits the pathogen or its effect by n%. MIC bound: limit read from a one-dose screen. MIC50, MIC90 and the like: level of inhibition, or share of isolates inhibited. Rows are shuffled and stem from different studies. An empty or dashed field is not shown. Inhibition is in % at the dose shown (toxicity tests: loss of growth or viability).

structure | strain or isolate | mutations | conditions | tested at | method | read-out | value
CC(CO)NCCN[C@@H]1C[C@@H]2C[C@H]([C@H]1C)C2(C)C |  |  |  |  |  | MIC | 12.5 µM
Cc1ccccc1NNC(=O)N1CCN(c2nc(N3CCN(c4ccccc4)CC3)c3ccccc3n2)CC1 | H37Rv |  |  |  | agar / visual reading | MIC | 200 µg/mL
O=c1oc2ccccc2cc1-c1cs/c(=N\N=C\c2ccccc2[N+](=O)[O-])n1C1CCCCC1 | H37Rv |  |  |  |  | MIC | >12.5 µg/mL
O=C(CSc1nnc(-c2ccccn2)s1)N/N=c1/scc(-c2ccccc2)n1-c1cccc(Br)c1 | Clinical isolate 331 |  |  |  |  | MIC | >80 µg/mL
O=C(NNc1cccc([N+](=O)[O-])c1)N1CCN(c2nc(N3CCN(c4ccccc4)CC3)c3ccccc3n2)CC1 | H37Rv |  |  |  | BACTEC / fluorescence | MIC | >6.25 µg/mL
COc1cc2c(c(O)c1OCC=C(C)C)c(=O)c1ccccc1n2C | H37Rv |  |  | 6.25 µg/mL | resazurin | inhibition | 7%
Cc1ccc2oc(=O)n(-c3ccc(Br)cc3)c(=S)c2c1 | My 331/88 |  | 21 d |  |  | MIC | 0.5 µM
O=C(n1c2ccccc2c2n[nH]c(=S)nc21)C(F)(F)F | H37Rv |  |  |  | BACTEC | MIC bound | >12.5 µg/mL
Cc1ccccc1-c1cs/c(=N/NC(=O)CSc2nnc(-c3ccccn3)s2)n1-c1ccccc1 | Clinical isolate 190 |  |  |  |  | MIC | >80 µg/mL
O=Cc1ccc(NNC(=O)N2CCN(c3nc(N4CCN(c5ccccc5)CC4)c4ccccc4n3)CC2)cc1 | H37Rv |  |  | 6.25 µg/mL | BACTEC / fluorescence | inhibition | 0%
CCC(C)(C)NCCNCc1ccc(C(F)(F)F)cc1 |  |  |  |  |  | MIC | 25 µM
O=C(Nc1cccc(Cl)c1)c1cc(Br)ccc1O | CNCTC MY331/88 |  |  |  |  | MIC | 4 µM
O=c1oc2ccc(Br)cc2cc1-c1cs/c(=N\N=C\c2cc(Br)ccc2O)n1C1CCCCC1 | H37Rv |  |  |  |  | EC50 | >12.5 µg/mL
COc1ccc2oc3c(ccc[n+]3C)c(=O)c2c1 | H37Rv |  |  |  | BACTEC | MIC bound | >12.5 µg/mL
NNC(=O)c1ccncc1 | RIF-R1 | rpoB mutant rifampicin-resistant |  |  | resazurin | MIC | 0.056 µg/mL
CC(C)O.COc1cc(CC2COC(=O)C2(O)Cc2ccc(O)c(OC)c2)ccc1O | H37Rv |  |  |  | BACTEC | MIC bound | >12.5 µg/mL
CCn1c(-c2cc3cc(Br)ccc3oc2=O)cs/c1=N\N=C\c1ccc(Cl)cc1 | H37Rv |  |  | 12.5 µg/mL |  | inhibition | 63%
N#Cc1ccc(NNC(=O)N2CCN(c3nc(N4CCN(c5ccccc5)CC4)c4ccccc4n3)CC2)cc1 | H37Rv |  |  |  | agar / visual reading | MIC | 12.5 µg/mL
CCOc1cc(/C=N/N=c2\scc(-c3cc4ccccc4oc3=O)n2C2CCCCC2)ccc1O | H37Rv |  |  |  |  | MIC | <12.5 µg/mL
OCc1ccccc1Sc1ccccc1CNCCNCCc1ccccc1Cl |  |  |  |  |  | MIC | 50 µM
N/C(COc1ccc(Cl)cc1)=N/NC(=O)c1ccncc1 | 16 isolates |  |  |  |  | MIC90 | 12.5 µg/mL
CCSC1OC(C(O)CO)C(O)C1NC(=O)C(F)(F)F | H37Rv |  |  |  | BACTEC | MIC bound | >12.5 µg/mL
CN(C)c1ccc(NC(=O)c2cc(F)ccc2O)cc1 | CNCTC MY331/88 |  |  |  |  | MIC | 31 µM
CN(Cc1cc(Br)cc(Br)c1O)Cn1c2ccccc2c2ccccc21 | H37Rv |  |  |  | BACTEC | MIC bound | >12.5 µg/mL
CCCCCCCCCCCNCCN[C@H](CO)CC(C)C |  |  |  |  |  | MIC | 50 µM
O=c1ccc2c(COc3ccc(Cl)cc3Cl)c3ccc(O)cc3oc-2c1 | H37Rv |  |  |  | BACTEC | MIC bound | >12.5 µg/mL
C=CCn1c(-c2cc3cc(Br)ccc3oc2=O)cs/c1=N\N=C\c1cc(Br)ccc1O | H37Rv |  |  |  |  | EC50 | <12.5 µg/mL
C[C@]1(COc2ccc(N3CCC(COc4ccc5c(c4)oc4ccccc45)CC3)cc2)Cn2cc([N+](=O)[O-])nc2O1 | H37Rv |  |  |  |  | MIC | 0.024 µg/mL
CCCN(CCC)N=Nc1c(C(N)=O)n[nH]c1C | H37Rv |  |  | 12.5 µg/mL | BACTEC | inhibition | 51%
NC1[C@H]2CN(c3nc4c(cc3F)c(=O)c(C(=O)O)cn4-c3ccc(F)cc3F)C[C@@H]12 | 44 isolates (resistant) |  |  |  |  | MIC90 | 128 µg/mL
O=C(Nc1cccc([N+](=O)[O-])c1)c1cc([N+](=O)[O-])ccc1O | CNCTC MY331/88 |  |  |  |  | MIC | 31 µM
OCC1(OC2OC(CF)C(O)C(O)C2O)OC(CF)C(O)C1O | H37Rv |  |  |  | BACTEC | MIC bound | >12.5 µg/mL
CN(C)c1ccc(/C=N/NC(=O)c2ccc(F)cc2)cc1 | H37Rv |  |  | 6.25 µg/mL |  | inhibition | 5%
Cc1ccn2nc(C)c(C(=O)NCc3ccc(-c4ccc(OC(F)(F)F)cc4)cn3)c2c1 | INH-R1 | katG mutant isoniazid resistant |  |  | resazurin | MIC | 0.014 µg/mL
Cc1ccc(-n2c(-c3ccccc3)cs/c2=N/NC(=O)CSc2nnc(-c3ccccn3)s2)cc1 | H37Rv |  |  |  |  | MIC | >80 µg/mL
CCCCCCCCCCCNCCNCC(c1ccccc1)c1ccccc1 |  |  |  |  |  | MIC | 12.5 µM
Cc1ccc(OC/C(N)=N\NC(=O)c2ccncc2)cc1 | ATCC 35838 (rifampin-resistant) |  |  |  |  | MIC | 3.12 µg/mL
C[C@]1(COc2ccc(N3CCN(C/C=C/c4ccc(OC(F)(F)F)cc4)CC3)cc2)Cn2cc([N+](=O)[O-])nc2O1 | H37Rv |  |  |  |  | MIC | 0.012 µg/mL
c1ccc(CCCCNCCNCC(c2ccccc2)c2ccccc2)cc1 |  |  |  |  |  | MIC | 6.25 µM
Cc1ccc(F)c(OCC2CCN(c3ccc(OC[C@@]4(C)Cn5cc([N+](=O)[O-])nc5O4)cc3)CC2)c1 | H37Rv |  |  |  |  | MIC | 0.024 µg/mL
O=C(CSc1nnc(-c2ccccn2)s1)N/N=c1/scc(-c2ccc([N+](=O)[O-])cc2)n1-c1ccccc1 | Clinical isolate 180 |  |  |  |  | MIC | >80 µg/mL
C[C@]12CC[C@H](OC3OC(CO)C(O)C(O)C3O)C[C@H]1CC[C@@H]1[C@@H]2CC[C@]2(C)[C@@H](C3=CCOC3=O)CC[C@]12O | H37Rv |  |  | 12.8 µg/mL | BACTEC | inhibition | 19%
CN(c1cccc(Cl)c1)C1CCN(c2ccc(OC[C@@]3(C)Cn4cc([N+](=O)[O-])nc4O3)cc2)CC1 | H37Rv |  |  |  |  | MIC | 0.024 µg/mL
N#Cc1ncc(C(Cl)(Cl)Cl)nc1Cl | TAC-R |  |  |  |  | MIC | 3.1 µg/mL
CC1CCC(NCCNc2cccc3ncccc23)CC1 |  |  |  |  |  | MIC | 3.13 µM
Cc1cccc(-n2c(-c3ccccc3)cs/c2=N/NC(=O)CSc2nnc(-c3ccccn3)s2)c1 | H37Rv |  |  |  |  | MIC | >80 µg/mL
O=Cc1ccc(Sc2nnc(N3CCN(c4nc(N5CCN(c6ccccc6)CC5)c5ccccc5n4)CC3)o2)cc1 | H37Rv |  |  |  | BACTEC / fluorescence | MIC | >6.25 µg/mL
Fc1ccccc1CCNCCNC12CC3CC(CC(C3)C1)C2 |  |  |  |  |  | MIC | 50 µM
O=C1C=CC2OC(c3ccccc3)C(O)C2O1 | H37Rv |  |  | 12.5 µg/mL | BACTEC | inhibition | 27%
O=C(CSc1nnc(-c2ccccn2)s1)N/N=c1/scc(-c2ccccc2)n1-c1ccccc1Br | Clinical isolate 180 |  |  |  |  | MIC | 80 µg/mL
O=C(N/N=C/c1ccco1)c1ccc(F)cc1 | H37Rv |  |  |  |  | EC50 | >6.25 µg/mL
Cc1cc(F)ccc1/C=C/CN1CCN(c2ccc(OC[C@@]3(C)Cn4cc([N+](=O)[O-])nc4O3)cc2)CC1 | H37Rv |  |  |  |  | MIC | <0.012 µg/mL
CO[C@H]1/C=C/O[C@@]2(C)Oc3c(C)c(O)c4c(O)c(c(/C=N/N5CCN(C)CC5)c(O)c4c3C2=O)NC(=O)/C(C)=C\C=C\[C@H](C)[C@H](O)[C@@H](C)[C@@H](O)[C@@H](C)[C@H](OC(C)=O)[C@@H]1C | H37Rv |  |  |  |  | MIC | 2.5 µg/mL
c1ccc2c(c1)nc1n2CC2(CO1)COc1nc3ccccc3n1C2 | H37Rv |  |  |  |  | MIC bound | >6.25 µg/mL
CC(=O)NC[C@H]1CN(c2ccc(N3CCN(c4ccc([N+](=O)[O-])s4)CC3)c(F)c2)C(=O)O1 | SGPGI |  |  |  |  | MIC | 0.5 µg/mL
CC1COc2c(N3CCN(C)CC3)c(F)cc3c(=O)c(C(=O)O)cn1c23 | 250 isolates |  |  |  |  | MIC50 | 1 µg/mL
N/C(COc1ccc([N+](=O)[O-])cc1)=N/NC(=O)c1ccncc1 | ATCC 35828 (pyrazinamide-resistant) |  |  |  |  | MIC | 12.5 µg/mL
CCOc1cc(/C=N/NC(=O)c2ccc(F)cc2)ccc1O | H37Rv |  |  |  |  | EC50 | >6.25 µg/mL
O=C(CSc1nnc(-c2ccccn2)s1)N/N=c1/scc(-c2ccccc2)n1-c1cccc([N+](=O)[O-])c1 | Clinical isolate 190 |  |  |  |  | MIC | >80 µg/mL
O=C1C(CC=C(Cl)Cl)=C(OC2OC(CO)C(O)C(O)C2O)C(=O)c2ccccc21 | H37Rv |  |  | 128 µg/mL | BACTEC | inhibition | 99%
Cc1ccc(Sc2nnc(N3CCN(c4nc(N5CCN(c6ccccc6)CC5)c5ccccc5n4)CC3)o2)cc1 | H37Rv |  |  |  | BACTEC / fluorescence | MIC | >6.25 µg/mL
COc1ccc2oc(=S)n(-c3ccc(C(F)(F)F)cc3)c(=S)c2c1 | My 331/88 |  | 21 d |  |  | MIC | 32 µM
Cc1ccc(C)c(N2C/C(=N\NC(=O)CC#N)C(c3nc4ccccc4s3)C(=O)C2=O)c1 | H37Rv |  |  | 12.5 µg/mL | BACTEC | inhibition | 11%
C[C@]1(COc2ccc3nc(N4CCC(Cc5ccc(OC(F)(F)F)cc5)CC4)ccc3c2)Cn2cc([N+](=O)[O-])nc2O1 | H37Rv |  |  |  |  | MIC | 0.003 µg/mL
Cc1ccc(NNC(=O)N2CCN(c3nc(N4CCN(c5ccccc5)CC4)c4ccccc4n3)CC2)cc1 | H37Rv |  |  |  | agar / visual reading | MIC | 50 µg/mL
Cc1c(F)c(N2CCNC(C)C2)cc2c1c(=O)c(C(=O)O)cn2C1CC1 | 45 strains (drug-susceptible) |  |  |  |  | MIC90 | 1 µg/mL
C[C@]1(COc2ccc(N3CCC(Nc4ccc(Cl)cc4Cl)CC3)cc2)Cn2cc([N+](=O)[O-])nc2O1 | H37Rv |  |  |  |  | MIC | 0.012 µg/mL
N[C@@H](C/[N+]([O-])=N/O)C(=O)O | H37Rv |  |  | 12.5 µg/mL | BACTEC | inhibition | 13%
C1=C(CCNCCNCC23CC4CC(CC(C4)C2)C3)CCCC1 |  |  |  |  |  | MIC | 25 µM
COc1ccc2oc(=S)n(-c3ccc(Cl)cc3)c(=S)c2c1 | My 331/88 |  | 14 d |  |  | MIC | 8 µM
O=[N+]([O-])c1cccc(Sc2nnc(N3CCN(c4nc(N5CCN(c6ccccc6)CC5)c5ccccc5n4)CC3)o2)c1 | H37Rv |  |  | 6.25 µg/mL | BACTEC / fluorescence | inhibition | 0%
CC(=O)n1cc(CCC(=O)O)c2ccccc21 | H37Rv |  |  | 12.5 µg/mL | BACTEC | inhibition | 0%
O=C(O)c1cnc(Cl)cn1 | ATCC35801 |  |  |  |  | MIC | 64 µg/mL
Cc1ccc2oc(=O)n(-c3ccc(Cl)c(Cl)c3)c(=S)c2c1 | My 331/88 |  | 14 d |  |  | MIC | 0.5 µM
COc1cc2c(c3oc(=O)cc(CCC(=O)O)c13)C1CC(=O)OC1O2 | H37Rv |  |  | 12.5 µg/mL | BACTEC | inhibition | 24%
O=C(CSc1nnc(-c2ccccn2)s1)N/N=c1/scc(-c2cccc(Br)c2)n1-c1ccccc1 | Clinical isolate 331 |  |  |  |  | MIC | 10 µg/mL
COc1ccc(C2(CO)OC(CO)C(O)C2O)cc1 | H37Rv |  |  | 12.5 µg/mL | BACTEC | inhibition | 15%
O=C(N/N=C/c1cccc(Cl)c1)c1ccc(F)cc1 | H37Rv |  |  | 6.25 µg/mL |  | inhibition | 57%
O=C(Nc1ccc(Br)cc1)c1cc(F)ccc1O | CNCTC MY331/88 |  |  |  |  | MIC | 4 µM
COc1cc(C2SC(N)=Nc3c2c(C)nn3C(=O)Cc2ccccc2)cc(OC)c1OC | H37Rv |  |  |  | BACTEC | MIC bound | >12.5 µg/mL
CC1COc2c(N3CCN(C)CC3)c(F)cc3c(=O)c(C(=O)O)cn1c23 | 45 strains (drug-susceptible) |  |  |  |  | MIC90 | 1 µg/mL

The last 5 rows once more:

structure	strain or isolate	mutations	conditions	tested at	method	read-out	value
COc1ccc(C2(CO)OC(CO)C(O)C2O)cc1	H37Rv			12.5 µg/mL	BACTEC	inhibition	15%
O=C(N/N=C/c1cccc(Cl)c1)c1ccc(F)cc1	H37Rv			6.25 µg/mL		inhibition	57%
O=C(Nc1ccc(Br)cc1)c1cc(F)ccc1O	CNCTC MY331/88					MIC	4 µM
COc1cc(C2SC(N)=Nc3c2c(C)nn3C(=O)Cc2ccccc2)cc(OC)c1OC	H37Rv				BACTEC	MIC bound	>12.5 µg/mL
CC1COc2c(N3CCN(C)CC3)c(F)cc3c(=O)c(C(=O)O)cn1c23	45 strains (drug-susceptible)					MIC90	1 µg/mL